Experimental data published in article PMC11794977, “Inhibitory Potential and Binding Thermodynamics of Scyllatoxin‐Based BH3 Domain Mimetics Targeting Repressor BCL2 Proteins” (Journal of Molecular Recognition, 2025).

Experiment: Wavelength‐dependent CD spectropolarimetry, percent helicity
Type: physicochemical
Conditions: 10 μM peptide in binding buffer (50 mM Tris, 100 mM NaCl, pH 8.0), 20°C, calculated from MRE at 222 nm

Compound | percent helicity [%]
CC[C@H](NC(=O)[C@H](CO)NC(=O)CNC(C)=O)C(=O)N[C@@H](CCCCN)C(=O)N[C@@H](CCCCN)C(=O)N[C@@H](CC(C)C)C(=O)N[C@@H](CO)C(=O)N[C@H]1CSSC[C@@H](C(=O)N[C@@H](CCC(=O)O)C(=O)N[C@@H](CC)C(=O)N[C@H](C(=O)N[C@@H](CCCCN)C(=O)N[C@@H](Cc2c[nH]cn2)C(N)=O)C(C)C)NC(=O)[C@H](CCCCN)NC(=O)[C@H](CC(=O)O)NC(=O)CNC(=O)[C@H]([C@@H](C)CC)NC(=O)[C@H](CC)NC(=O)[C@H](CCCCN)NC(=O)CNC(=O)[C@H](CC(C)C)NC(=O)[C@H](CC(C)C)NC(=O)CNC(=O)[C@H](CC(=O)O)NC(=O)CNC(=O)[C@H]([C@@H](C)CC)NC(=O)[C@H](CC)NC(=O)[C@H](CCCCN)NC(=O)[C@H](CC(C)C)NC(=O)[C@H](CC)NC1=O [^AcScTx‐Bax^ΔΔ,8–26] (HELM PEPTIDE1{[ac].G.S.[Abu].K.K.L.S.C.[Abu].L.K.[Abu].I.G.D.G.L.L.G.K.[Abu].I.G.D.K.C.E.[Abu].V.K.H.[am]}$PEPTIDE1,PEPTIDE1,9:R3-27:R3$$$V2.0) | 39.3
CC[C@H](NC(=O)[C@H](CO)NC(=O)CNC(C)=O)C(=O)N[C@@H](CCCCN)C(=O)N[C@@H](CCCCN)C(=O)N[C@@H](CC(C)C)C(=O)N[C@@H](CO)C(=O)N[C@@H](CC)C(=O)N[C@@H](CC)C(=O)N[C@@H](CC(C)C)C(=O)N[C@@H](CCCCN)C(=O)N[C@@H](CC)C(=O)N[C@H](C(=O)NCC(=O)N[C@@H](CC(=O)O)C(=O)NCC(=O)N[C@@H](CC(C)C)C(=O)N[C@@H](CC(C)C)C(=O)NCC(=O)N[C@@H](CCCCN)C(=O)N[C@@H](CC)C(=O)N[C@H](C(=O)NCC(=O)N[C@@H](CC(=O)O)C(=O)N[C@@H](CCCCN)C(=O)N[C@@H](CC)C(=O)N[C@@H](CCC(=O)O)C(=O)N[C@@H](CC)C(=O)N[C@H](C(=O)N[C@@H](CCCCN)C(=O)N[C@@H](Cc1c[nH]cn1)C(N)=O)C(C)C)[C@@H](C)CC)[C@@H](C)CC [^AcScTx‐Bax^ΔΔΔ] (HELM PEPTIDE1{[ac].G.S.[Abu].K.K.L.S.[Abu].[Abu].L.K.[Abu].I.G.D.G.L.L.G.K.[Abu].I.G.D.K.[Abu].E.[Abu].V.K.H.[am]}$$$$V2.0) | 13.1

Where a SMILES comes first, the peptide text is derived from it.
